Results of unrelated studies side by side (data: NIAID ChemDB).

Common to all: growth or infection tests; organism: Herpes simplex virus 1

Blank or dashed fields: not listed here. Neighbouring rows are from separate reports. ECn is the concentration giving n% inhibition of infection, replication or growth.

SMILES,mutations,strain,endpoint,cells,read by,result
CC1(C)[C@@H](CO)CC[C@@]1(C)Cn1nnc2c(Cl)ncnc21,-,KOS,EC50,E6SM,cytopathic effect,>400 µg/mL
Cc1c(NC(=O)OC(C)(C)C)ccc2nc(N3CCCC3(OCc3ccccc3)C(=O)N(C)CCc3ccccn3)oc(=O)c12,-,-,EC90,VERO,plaque count,5.9 µM
CCc1cn([C@H]2C[C@H](O)[C@@H](COP(=O)(O)O)O2)c(=O)[nH]c1=O,-,KOS,EC50,HEP-2,cytopathic effect,0.4 µg/mL
COCc1cn([C@H]2C[C@H](O)[C@@H](CO)O2)c(=O)[nH]c1=O,-,76,EC50,RK-13,plaque count,7 µM
O=c1c2ncn(COCCO)c2nc2[nH]c(-c3ccc(C(F)(F)F)cc3)cn12,-,McIntyre,EC50,HEL,cytopathic effect,>16 µg/mL
OC[C@H]1O[C@@H](c2cc(Br)c(F)cc2F)C[C@@H]1O,-,KOS,EC50,E6SM,cytopathic effect,>400 µg/mL
Nc1nc(=O)n([C@@H]2O[C@H](CO)[C@@H](O)[C@@H]2F)cc1I,-,KOS,EC50,HEL,cytopathic effect,0.02 µg/mL
O=C(NCc1ccc(Cl)cc1)c1c[nH]c2ccc(C#CCO)cc2c1=O,-,F,EC50,-,plaque count,9.5 µM
O=c1[nH]c(=O)n([C@H]2C[C@H](O)[C@@H](CO)O2)cc1I,-,B2006 (TK-),EC50,PRK,cytopathic effect,>200 µg/mL
Nc1nc2c(ncn2CCC(CO)CO)c(=O)[nH]1,-,KT2,EC50,VERO,plaque count,177.7 µM
CCN(C(=O)N(C)CCc1ccncc1)c1nc2ccc(NC(=O)OC(C)(C)C)c(C)c2c(=O)o1,-,-,EC90,VERO,plaque count,<3.2 µM
COC(CI)c1cc([C@H]2C[C@H](O)[C@@H](CO)O2)c(F)cc1F,-,TK-deficient acyclovir-resistant,EC50,E6SM,cytopathic effect,>80 µg/mL
Nc1nc2c(ncn2COCCO)c(=O)[nH]1,-,HL-34,EC50,HFF,plaque count,0.4 µg/mL
CSCc1cn([C@H]2C[C@H](O)[C@@H](CO)O2)c(=O)[nH]c1=O,-,VDO374,EC50,PRK,cytopathic effect,2 µg/mL
OC[C@H]1O[C@@H](c2cc(F)c(F)cc2F)C[C@@H]1O,-,F,EC50,E6SM,cytopathic effect,>400 µg/mL
Nc1ccn([C@@H]2O[C@H](CO)[C@@H](O)[C@@H]2O)c(=O)n1,-,KOS,EC50,Primary rabbit kidney cells,cytopathic effect,0.02 µg/mL
Nc1nc2c(ncn2CCC(CO)CO)c(=O)[nH]1,-,Tomioka,EC50,MRC-5,plaque count,0.54 µg/mL
CN(C)Cc1cn([C@H]2C[C@H](O)[C@@H](CO)O2)c(=O)[nH]c1=O,-,KOS,EC50,HSF,cytopathic effect,>200 µg/mL
O=c1c2ncn(COCCO)c2nc2[nH]c(-c3ccccc3)c(Cc3ccc(F)cc3)n12,-,TK-,EC50,HEL,cytopathic effect,>16 µg/mL
CC(C)NS(=O)(=O)c1ccccc1C(=O)N/N=C/c1ccccc1,-,KOS,EC50,HEL,cytopathic effect,>100 µM
CC(C1=NNC(=NCc2ccc(Cl)cc2)SC1)N1C(=O)c2ccccc2C1=O,-,VR733,EC50,VERO,cytopathic effect,>111 µg/mL
O=C(NCc1ccc(Cl)cc1)c1c[nH]c2c(F)cccc2c1=O,-,PFA2 (T566A A605V),EC50,-,-,1.5 µM
CCCc1cn([C@H]2C[C@H](O)[C@@H](COP(=O)(O)O)O2)c(=O)[nH]c1=O,-,KOS,EC50,BSC-1,cytopathic effect,20 µg/mL
[N-]=[N+]=NCc1cn([C@H]2C[C@H](O)[C@@H](CO)O2)c(=O)[nH]c1=O,-,VDX500,EC50,PRK,cytopathic effect,2 µg/mL
Nc1nc(-c2ccc(NC(=O)CNCc3ccccc3)cc2)cs1,-,-,EC50,BHK-21/C13,plaque count,2.7 µM
Cc1cc([C@H]2C[C@H](O)[C@@H](CO)O2)c(Cl)cc1F,-,KOS/ACV-R,EC50,E6SM,cytopathic effect,>400 µg/mL
COc1ccc(-c2[nH]c3nc4c(ncn4COCCO)c(=O)n3c2C)cc1,-,McIntyre,EC50,HEL,cytopathic effect,1.92 µg/mL
Cc1cc([C@H]2C[C@H](O)[C@@H](CO)O2)c(F)cc1Cl,-,McIntyre,EC50,E6SM,cytopathic effect,>400 µg/mL
CC(C)NS(=O)(=O)c1ccccc1-c1n[nH]c(=S)o1,-,KOS,EC50,HEL,cytopathic effect,>100 µM
OC[C@H]1O[C@@H](c2cc(C(O)CI)c(F)cc2F)C[C@@H]1O,-,KOS,EC50,E6SM,cytopathic effect,>16 µg/mL
O=C(NCc1ccc(Cl)cc1)c1c[nH]c2c(F)cc(CCCO)cc2c1=O,-,ARAA9 (N961K (V)),EC50,-,-,1.4 µM
Cc1c(NC(=O)c2ccccc2I)ccc2nc(NC(C)(C)C(=O)N(C)CCc3ccccn3)oc(=O)c12,-,-,EC90,VERO,plaque count,>12.5 µM
CC(C1=NNC(=Nc2cccnc2)SC1)N1C(=O)c2ccccc2C1=O,-,VR733,EC50,VERO,cytopathic effect,>333 µg/mL
O=c1[nH]c(=O)n([C@H]2C[C@H](O)[C@@H](CO)O2)cc1I,-,FRAN,MIC,-,-,2.2 µg/mL
COC1c2ccccc2C(=O)N1C(C)C1=NNC(=Nc2ccccc2)SC1,-,VR733,EC50,VERO,cytopathic effect,37.03 µg/mL
Cc1c(NC(=O)OC(C)(C)C)ccc2nc(N(CCC(C)C)C(=O)N(C)CCc3cccnc3)oc(=O)c12,-,-,EC90,VERO,plaque count,6.1 µM
Nc1ccn([C@H]2CO[C@H](CO)[C@@H](O)C2)c(=O)n1,-,KOS,EC50,E6SM,cytopathic effect,7 µg/mL
COc1ccc(-c2cn3c(=O)c4ncn(COC(CO)CO)c4nc3[nH]2)cc1,-,VMW 1837,EC50,-,cytopathic effect,0.04 µg/mL
CCc1cc([C@H]2C[C@H](O)[C@@H](CO)O2)c(F)cc1F,-,KOS,EC50,E6SM,cytopathic effect,>400 µg/mL
OC[C@H]1O[C@@H](c2ccc(F)cc2F)C[C@@H]1O,-,F,EC50,E6SM,cytopathic effect,>400 µg/mL
CC(=O)c1ccc(NC(=O)CN2C(=O)c3ccccc3S2(=O)=O)cc1,TK-deficient acyclovir-resistant,KOS,EC50,HEL,cytopathic effect,>100 µM
COc1ccc(-c2[nH]c3nc4c(ncn4COCCO)c(=O)n3c2-c2ccc(C(c3ccccc3)c3ccccc3)cc2)cc1,-,KOS,EC50,-,cytopathic effect,>16 µg/mL
Nc1nc2c(ncn2COCCOP(=O)(O)O[C@@H]2[C@H](O)[C@@H](COP(=O)(O)O[C@@H]3[C@H](O)[C@@H](CO)O[C@H]3n3cnc4c(N)ncnc43)O[C@H]2n2cnc3c(N)ncnc32)c(=O)[nH]1,-,VMW1837 (TK-),EC50,PRK,cytopathic effect,>100 µg/mL
CC1(C)[C@@H](CO)CC[C@@]1(C)Cn1cc(Br)c(=O)[nH]c1=O,-,KOS,EC50,E6SM,cytopathic effect,>400 µg/mL
N#Cc1cc([C@H]2C[C@H](O)[C@@H](CO)O2)c(F)cc1F,-,McIntyre,EC50,E6SM,cytopathic effect,>400 µg/mL
Nc1ncnc2c1ncn2[C@@H]1O[C@H](CO)[C@@H](O)[C@H]1OP(=O)(O)OC[C@H]1O[C@@H](n2cnc3c(N)ncnc32)[C@H](OP(=O)(O)OC[C@H]2O[C@@H](n3cc(F)c(=O)[nH]c3=O)C[C@@H]2O)[C@@H]1O,-,VMW1837 (TK-),EC50,PRK,cytopathic effect,2 µg/mL
CC(C1=NNC(=NCc2ccccc2)SC1)N1C(=O)c2ccccc2C1=O,-,VR733,EC50,VERO,cytopathic effect,77.04 µg/mL
Cc1cc(C(=O)Nc2ccc3nc(NC(C)(C)C(=O)N(C)CCc4ccccn4)oc(=O)c3c2C)c(C)o1,-,-,EC90,VERO,plaque count,>12.5 µM
COc1ccc(N=C2NN=C(C(C)N3C(=O)c4ccccc4C3=O)CS2)cc1,-,VR733,EC50,VERO,cytopathic effect,64.15 µg/mL
Cc1cn([C@@H]2O[C@H](CO)[C@@H](O)[C@@H]2F)c(=O)[nH]c1=O,-,Shealey,EC50,VERO,plaque count,0.9 µM
Cc1c(NC(=O)OC(C)(C)C)ccc2nc(N3CCCC3(OCc3ccccc3)C(=O)N(C)CCc3ccncc3)oc(=O)c12,-,-,EC90,VERO,plaque count,6.5 µM
Cc1cn([C@@]2(/C=C/C#N)C[C@H](O)[C@@H](CO)S2)c(=O)[nH]c1=O,-,-,EC50,HEL,cytopathic effect,>100 µg/mL
Nc1nc(=O)n([C@@H]2O[C@H](CO)[C@@H](O)[C@@H]2F)cc1I,-,MGH 10,EC50,VERO,plaque count,0.5 µM
O=c1[nH]c(=O)n([C@H]2C[C@H](O)[C@@H](CO)O2)cc1/C=C/Br,-,KOS,EC50,HSF,cytopathic effect,0.01 µg/mL
O=c1c2ncn(COCCO)c2[nH]c2ncc(CO)n12,-,KOS,EC50,-,cytopathic effect,>3.2 µg/mL
OC[C@H]1O[C@@H](c2cc(C#CI)c(F)cc2F)C[C@@H]1O,-,KOS ACV-R (TK-),EC50,E6SM,cytopathic effect,>400 µg/mL
OC[C@H]1O[C@@H](c2cc(I)c(F)cc2F)C[C@@H]1O,-,McIntyre,EC50,E6SM,cytopathic effect,>400 µg/mL
CC(C1=NNC(=Nc2ccccc2)SC1)N1C(=O)c2cccc([N+](=O)[O-])c2C1=O,-,VR733,EC50,VERO,cytopathic effect,111 µg/mL
O=c1[nH]c(=O)n([C@H]2C[C@H](O)[C@@H](CO)O2)cc1/C=C/Br,-,1 (PAA-resistant),EC50,PRK,cytopathic effect,0.02 µg/mL
O=c1c2ncn(COC(CO)CO)c2nc2[nH]c(-c3ccc(F)cc3)cn12,-,TK-,EC50,HEL,cytopathic effect,>80 µg/mL
O=c1[nH]c(=O)n([C@H]2C[C@H](O)[C@@H](CO)O2)cc1I,-,LYONS,EC50,Primary rabbit kidney cells,cytopathic effect,1 µg/mL
Cc1ccc(/C=N/NC(=O)c2ccccc2S(=O)(=O)NC(C)C)cc1,-,KOS,EC50,HEL,cytopathic effect,>100 µM
O=c1c2ncn(COC(CO)CO)c2nc2[nH]c(-c3ccccc3)cn12,-,VMW 1837,EC50,-,cytopathic effect,0.5 µg/mL
Nc1ncnc2c1ncn2[C@@H]1O[C@H](COP(=O)(O)O)[C@@H](O)[C@@H]1O,-,E-377,EC50,MEF,plaque count,17 µM
CC(C1=NNC(=Nc2ccc(Cl)cc2)SC1)N1C(=O)c2ccccc2C1=O,-,VR733,EC50,VERO,cytopathic effect,>37.03 µg/mL
C=Cc1cc([C@H]2C[C@H](O)[C@@H](CO)O2)c(F)cc1F,-,McIntyre,EC50,E6SM,cytopathic effect,>400 µg/mL
O=c1c2ncn(COC(CO)CO)c2[nH]c2nccn12,-,F,EC50,-,cytopathic effect,0.004 µg/mL
Nc1ncnc2c1ncn2C[C@H](O)CO,-,1 (PAA-resistant),EC50,PRK,cytopathic effect,>400 µg/mL
Nc1ccn([C@@H]2O[C@H](CO)[C@@H](O)[C@@H]2O)c(=O)n1,-,KOS,EC50,HeLa,cytopathic effect,0.1 µg/mL
CC1(C)[C@@H](CO)CC[C@@]1(C)Cn1cnc2c(N)ncnc21,-,KOS,EC50,E6SM,cytopathic effect,>400 µg/mL
Cc1c(NC(=O)CCCNC(=O)OCc2ccccc2)ccc2nc(NC(C)(C)C(=O)N(C)CCc3ccccn3)oc(=O)c12,-,-,EC90,VERO,plaque count,>12.5 µM
Nc1ccnc(O[C@H]2CO[C@H](CO)[C@@H](O)C2)n1,-,TK-/TK+ (VMW 1837),EC50,E6SM,cytopathic effect,>20 µg/mL
Nc1ncnc2c1ncn2[C@@H]1O[C@H](CO)[C@@H](O)[C@@H]1O,-,Clinical isolate HL-34,EC50,MEF,plaque count,27 µM
C/C(=N/Nc1nc(-c2ccccc2)cs1)c1ccc(NC(=O)CN2C(=O)c3ccccc3S2(=O)=O)cc1,-,KOS,EC50,HEL,cytopathic effect,20 µM
Nc1nc(N)c2ncn([C@H]3CO[C@H](CO)[C@@H](O)C3)c2n1,-,TK-/B2006,EC50,E6SM,cytopathic effect,>20 µg/mL